Among the data in patent US20240245675A1, “PROTEIN SECRETION INHIBITORS” (Gate Bioscience, Inc., priority 2021, published 2024) are IC50 values, retold here.

The chains behind the UniProt entries cited, without tags or fusion partners.
UniProt P61619, whole entry, looked up: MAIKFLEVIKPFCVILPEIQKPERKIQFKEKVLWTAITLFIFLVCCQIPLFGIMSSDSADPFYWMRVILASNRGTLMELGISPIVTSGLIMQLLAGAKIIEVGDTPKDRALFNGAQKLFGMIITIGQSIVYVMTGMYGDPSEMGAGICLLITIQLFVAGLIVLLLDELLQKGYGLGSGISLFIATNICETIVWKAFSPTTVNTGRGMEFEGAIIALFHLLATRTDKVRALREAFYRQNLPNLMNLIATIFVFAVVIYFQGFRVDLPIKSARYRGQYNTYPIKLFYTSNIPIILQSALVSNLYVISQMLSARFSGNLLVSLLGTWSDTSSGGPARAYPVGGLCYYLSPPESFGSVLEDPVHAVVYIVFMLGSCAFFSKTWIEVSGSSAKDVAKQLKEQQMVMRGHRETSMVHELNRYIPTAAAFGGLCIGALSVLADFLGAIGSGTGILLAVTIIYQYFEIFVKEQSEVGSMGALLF

What is called IC50 is the concentration at which inhibition is half-maximal.

In the experiment the target is PRP Construct (signal peptide + 10 amino acids of Prion protein fused to HaloTag-HiBit) (Homo sapiens, UniProt P61619). The experiment can be described thus: cell-based.

`CN(Cc1ccncc1)C(=O)Nc1nc([C@H]2CCCN2c2ccccc2)cs1` [Compound 10, (R)-1-methyl-3-(4-(1-phenylpyrrolidin-2-yl)thiazol-2-yl)-1-(pyridin-4-ylmethyl)urea]: the concentration for half-maximal inhibition (IC50) was in the range of 10 to 30 µM. For `O=C(CCNc1ccncc1)Nc1nc([C@H]2CCCN2c2ccccc2)cs1` [Compound 3, (R)—N-(4-(1-phenylpyrrolidin-2-yl)thiazol-2-yl)-3-(pyridin-4-ylamino)propanamide] the value was above 30 µM.
